Results of unrelated studies side by side (data: NIAID ChemDB).

Shared fields: tests in culture; species: Mycobacterium smegmatis; measure: EC50

ECn is the concentration giving n% inhibition of infection, replication or growth.

{"compound": "Cc1cn(C/C=C\\Cn2c(=O)n3c4c(cc(N)cc42)CCC3)c(=O)[nH]c1=O", "strain": "mc2155", "read by": "resazurin / absorbance", "value": ">160 µg/mL"}
{"compound": "CC(C)N[C@@H](C)[C@@H](C)NC(C)C", "strain": "ATCC 607", "value": ">1000 µg/mL"}
{"compound": "O=C(O)C(=O)O.c1ccc(Oc2cccc(CN3CCN(Cc4ccco4)CC3)c2)cc1", "value": "23.7 µM"}
{"compound": "CCCCCC(C)NCCNC(C)CCCCC", "strain": "ATCC 607", "value": "<30 µg/mL"}
{"compound": "C[C@@H](NC(=O)c1cc(N=O)cc(C(F)(F)F)c1)c1ccccc1", "value": "10.4 µg/mL"}
{"compound": "O=C/C=C/c1ccc(O)cc1", "strain": "KCTC 2002", "value": "200 µM"}
{"compound": "O=C1Cc2c([nH]c3ccc([N+](=O)[O-])cc23)-c2ccccc2N1", "read by": "PCR", "value": "108.7 µM"}
{"compound": "CC(C)NCCNc1ccccc1", "strain": "ATCC 607", "value": ">1000 µg/mL"}
{"compound": "Fc1ccccc1N1CCN(Cc2cccc(Oc3ccccc3)c2)CC1", "value": ">100 µM"}
{"compound": "O=C(O)CC1Sc2nnc(Cc3ccc(Br)cc3)n2N=C1c1ccc(Cl)cc1", "strain": "mc2155", "read by": "resazurin", "value": "20 µM"}
{"compound": "CCCCCCCCCN(C)CCN(C)C", "strain": "ATCC 607", "value": "<60 µg/mL"}
{"compound": "CCc1nc(NCCCc2ccccc2)c2cc(C)sc2n1", "changes": "cydA +EV", "strain": "mc2155", "read by": "resazurin", "value": "0.41 µM"}
{"compound": "CCNc1cc(C)nc(Nc2ccc3nc(-c4ccc(Cl)cc4)[nH]c3c2)n1", "changes": "I66M", "read by": "fluorescence", "value": "0.064 µM"}
{"compound": "CC(NCCNC(C)c1ccccc1)c1ccccc1", "strain": "ATCC 607", "value": "<250 µg/mL"}
{"compound": "Cc1cn(C/C=C\\Cn2c(=O)n3c4c(cccc42)CC(N)C3)c(=O)[nH]c1=O", "strain": "mc2155", "read by": "resazurin / absorbance", "value": ">160 µg/mL"}
{"compound": "O=C(NCCc1ccc(Cl)cc1)C1(c2cccs2)CCOCC1", "read by": "turbidity", "value": "20 µM"}
{"compound": "CCC(C)(C)NCCNC(C)C", "strain": "ATCC 607", "value": ">250 µg/mL"}
{"compound": "c1ccc(Oc2cccc(CN3CCN(Cc4ccc5c(c4)OCO5)CC3)c2)cc1", "value": "78.1 µM"}
{"compound": "CC(C)(C)OC(=O)NCCCCCN", "cells": "HepG2 cells", "read by": "MTT", "value": ">50 µg/mL"}
{"compound": "C=C/C(C)=C/[C@@]1(C)SC(=O)C(C)=C1O", "strain": "mc2155", "value": "<75 µg/mL"}

Repeating the first 3 entries:

compound	changes	strain	cells	read by	value
Cc1cn(C/C=C\Cn2c(=O)n3c4c(cc(N)cc42)CCC3)c(=O)[nH]c1=O		mc2155		resazurin / absorbance	>160 µg/mL
CC(C)N[C@@H](C)[C@@H](C)NC(C)C		ATCC 607			>1000 µg/mL
O=C(O)C(=O)O.c1ccc(Oc2cccc(CN3CCN(Cc4ccco4)CC3)c2)cc1					23.7 µM

Neighbouring rows are from separate reports. An empty or dashed field is not shown.